Assay results as given in publication PMC5013675, “Nucleotide binding by the widespread high-affinity cyclic di-GMP receptor MshEN domain” (Nature Communications, 2016).

Protein sequences, listed by entry. Tags and fused reporters are not part of them. Residues count along the entry.
UniProt Q9KUV7, 1-145 limits assumed: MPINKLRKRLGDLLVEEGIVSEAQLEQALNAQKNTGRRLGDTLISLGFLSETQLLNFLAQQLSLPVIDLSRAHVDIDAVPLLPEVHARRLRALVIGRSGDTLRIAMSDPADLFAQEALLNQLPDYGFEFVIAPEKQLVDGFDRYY

Biological target: VcMshEN1-145 (wild type) (Vibrio cholerae, UniProt Q9KUV7)
Test: ITC titration of wild-type VcMshEN with cyclic dinucleotides
Type: binding
Settings: relative to wild type

Nc1nc2c(ncn2[C@@H]2O[C@@H]3COP(=O)(O)O[C@H]4[C@@H](O)[C@H](n5cnc6c(=O)[nH]c(N)nc65)O[C@@H]4COP(=O)(O)O[C@H]3[C@H]2O)c(=O)[nH]1 [c-di-GMP, Cyclic dimeric GMP]
Fold change of KD: 1.0
